Assay results: article PMC11502347 (Frontiers in Microbiology, 2024)
Where “and” joins values, the source holds several entries; their conditions need not be identical. Identical values can stand only once.

Key:
[1] = test system: Murine macrophage J774.A1; format: cell-based; settings: SI = IC50/MIC90 (Mtb H37Rv)
[2] = test system: MRC-5 fibroblasts; format: cell-based, human; settings: SI = IC50/MIC90 (Mtb H37Rv)

| SMILES | SI J774.A1 [1] | SI MRC-5 [2] |
| --- | --- | --- |
| O=C(Nc1ccc(N2CCSCC2)c(F)c1)c1ccc2no[n+]([O-])c2c1 [Compound 5b] | 57.14 and 57 | 81.43 |
| NNC(=O)c1ccncc1 [INH, isoniazid] | >750 | >750 |
| CO[C@H]1/C=C/O[C@@]2(C)Oc3c(C)c(O)c4c(O)c(c(/C=N/N5CCN(C)CC5)c(O)c4c3C2=O)NC(=O)/C(C)=C\C=C\[C@H](C)[C@H](O)[C@@H](C)[C@@H](O)[C@@H](C)[C@H](OC(C)=O)[C@@H]1C [RFP, rifampicin] | >2,400 | >2,400 |
